# Laboratory results: PubChem BioAssay AID1259414 (Drosophila RNAi Screening Center, 2018)
# Screen: 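Genome-wide screen for host control of endosymbiont load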 (primary screen)
# Cell system: Drosophila JW18 cells infected with Wolbachia
# Reagent: long dsRNA against Drosophila genes, 0.25 µg dsRNA per well of a 384-well plate
# Time to read-out: 5 days
# Challenge: cells persistently infected with Wolbachia before knock-down; no added drug
# Read-out: 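Imaged fluorescence in situ signal for Wolbachia 23S rRNA per DAPI-counted host cell, given as a robust z-score within each plate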
# Direction: Wolbachia per cell robust z: higher = more Wolbachia per host cell than the plate typical
# Hit rule: 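Active if absolute robust z reaches 1.5 in two or more of three replicates, leaving out multi- or no-target dsRNAs, genes unexpressed in JW18 and A1 wells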
# The deposit covers about 24,000 reagents; shown is an unselected part of those that have a named target and a result. Over the whole deposit, about 1,210 (5%) were called active. 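Inactive calls also include excluded dsRNAs with several or no targets, genes unexpressed in JW18, and well A1, regardless of score.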 A plus sign joins genes that one reagent is predicted to hit. No sequences are given here.
Target gene,amplicon,"Wolbachia per cell robust z, rep 1","Wolbachia per cell robust z, rep 2","Wolbachia per cell robust z, rep 3",Call
Rev1,DRSC08264,0.86,-0.553,-0.458,inactive
mod,DRSC16999,0.433,0.348,-1.11,inactive
mod,DRSC28409,0.0655,-1.1,-0.61,inactive
CG10512,DRSC11615,0.197,-0.701,-0.262,inactive
CG10512,DRSC27914,1.46,1.27,0.709,inactive
CG13097,DRSC02199,-1.47,0.7,-0.317,inactive
crim,DRSC10573,-3.55,0.901,1.39,inactive
ng4,DRSC18805,-2.51,-1.89,-0.0358,inactive
mRpL50,DRSC11015,-3.15,-0.392,0.483,inactive
mRpL50,DRSC29216,0.717,1.25,1.05,inactive
CG14664,DRSC12250,-0.557,0.205,0.76,inactive
Rpn2,DRSC16839,2.7,0.38,2.91,active
Br140,DRSC06755,1.39,1.79,1.21,inactive
CG12112,DRSC17809,0.879,0.525,-0.0837,inactive
p-cup,DRSC19513,-4.3,0.0576,0.497,inactive
crp,DRSC03515,0.58,-0.224,-0.0738,inactive
crp,DRSC40714,0.41,0.07,0.432,inactive
Cpr51A,DRSC05969,-0.906,1.04,0.414,inactive
Rdh,DRSC08063,0.427,4.66,1.95,inactive
Ddc,DRSC03314,0.707,-0.154,-1.26,inactive
Ddc,DRSC39110,0.484,0.0967,-4.71,inactive
PH4alphaPV,DRSC22400,-0.0057,0.38,0.978,inactive
PH4alphaPV,DRSC28020,0.365,-0.0602,0.0898,inactive
CG11400,DRSC06070,0.475,0.494,-0.276,inactive
Kif19A,DRSC16576,-0.416,-1.27,0.309,inactive
Kif19A,DRSC23867,0.0874,1.43,1.28,inactive
Gk1,DRSC08533,-0.0762,0.74,0.356,inactive
Gk1,DRSC08534,0.146,0.186,-1.64,inactive
Irp-1A,DRSC16719,-8.28,-0.192,0.145,inactive
CG18469,DRSC21838,-0.606,-2.41,-0.554,inactive
Hs3st-B,DRSC20067,0.187,0.445,0.463,inactive

Continued (9 carried over from the part before).
Target gene,amplicon,"Wolbachia per cell robust z, rep 1","Wolbachia per cell robust z, rep 2","Wolbachia per cell robust z, rep 3",Call
PH4alphaPV,DRSC28020,0.365,-0.0602,0.0898,inactive
CG11400,DRSC06070,0.475,0.494,-0.276,inactive
Kif19A,DRSC16576,-0.416,-1.27,0.309,inactive
Kif19A,DRSC23867,0.0874,1.43,1.28,inactive
Gk1,DRSC08533,-0.0762,0.74,0.356,inactive
Gk1,DRSC08534,0.146,0.186,-1.64,inactive
Irp-1A,DRSC16719,-8.28,-0.192,0.145,inactive
CG18469,DRSC21838,-0.606,-2.41,-0.554,inactive
Hs3st-B,DRSC20067,0.187,0.445,0.463,inactive
CG42518 + MED9,DRSC06917,-3.68,-2.23,-10.3,inactive
CG6908,DRSC16131,1.37,0.805,-5.93,inactive
CG6908,DRSC25403,0,-0.375,-0.666,inactive
Esp,DRSC16664,-1.34,-1.17,-0.532,inactive
CG42729,DRSC10236,-0.183,-0.225,0.325,inactive
cGlr2,DRSC04017,-1.78,-0.81,-2.23,active
imd,DRSC05928,-0.886,-0.851,0.621,inactive
imd,DRSC26032,0.00577,-1.08,-0.00055,inactive
CG5199,DRSC11770,0.305,0.467,-0.74,inactive
Hinfp,DRSC18484,0.486,0.068,-0.204,inactive
Hinfp,DRSC24069,-0.556,-2.06,-1.07,inactive
mRpS26,DRSC10823,0.819,0.92,1.26,inactive
mRpS26,DRSC27288,-0.696,1.14,-0.858,inactive
RpL10,DRSC11947,1.65,1.01,2.98,active
Mitf,DRSC17212,0.489,0.523,-0.723,inactive
Mitf,DRSC21056,-4.39,-1.18,-0.607,inactive
Mitf,DRSC37876,0.243,0.364,0.971,inactive
CG30344,DRSC22510,-0.471,-0.454,1.01,inactive
CG30344,DRSC26387,0.178,0.507,-0.304,inactive
CG15356,DRSC00386,0.429,0.0155,0.492,inactive
Dh44-R2 + CG34234,DRSC07278,-0.329,-7.08,-0.406,inactive
CG13560,DRSC04198,-0.0606,0.947,-0.201,inactive
CG13560,DRSC27479,0.637,-0.144,-0.19,inactive
CG3528,DRSC00611,-0.889,-2.51,-0.98,inactive
CG3528,DRSC26034,-0.00374,-0.155,-0.533,inactive
CG30192,DRSC03977,-1.45,-1.09,-0.585,inactive
CG13227,DRSC06347,1.18,0.568,0.345,inactive
CG13227,DRSC27529,-5.37,1.02,0.24,inactive
Prps,DRSC08994,-1.61,-0.663,0.39,inactive
Prps,DRSC10707,-1.92,0.971,0.441,inactive
Prps,DRSC10708,0.157,0.604,0.142,inactive
CG31251,DRSC16247,-0.111,0.78,0.0205,inactive
CG11007,DRSC06023,0.217,0.231,0.175,inactive
CG14762,DRSC05073,-1.96,-1.33,-0.393,inactive
CG14762,DRSC06496,-1.27,-0.058,0.386,inactive
CG32036,DRSC10362,-7.21,-0.778,0.265,inactive
CG32036,DRSC28171,-8.45,-2.41,-2.45,inactive
